Here are results for 18 compounds from PubChem BioAssay AID559 (PCMD, 2006).

Protein sequences, listed by entry. Tags and fused reporters are not part of them.
UniProt P0A8V2, whole entry: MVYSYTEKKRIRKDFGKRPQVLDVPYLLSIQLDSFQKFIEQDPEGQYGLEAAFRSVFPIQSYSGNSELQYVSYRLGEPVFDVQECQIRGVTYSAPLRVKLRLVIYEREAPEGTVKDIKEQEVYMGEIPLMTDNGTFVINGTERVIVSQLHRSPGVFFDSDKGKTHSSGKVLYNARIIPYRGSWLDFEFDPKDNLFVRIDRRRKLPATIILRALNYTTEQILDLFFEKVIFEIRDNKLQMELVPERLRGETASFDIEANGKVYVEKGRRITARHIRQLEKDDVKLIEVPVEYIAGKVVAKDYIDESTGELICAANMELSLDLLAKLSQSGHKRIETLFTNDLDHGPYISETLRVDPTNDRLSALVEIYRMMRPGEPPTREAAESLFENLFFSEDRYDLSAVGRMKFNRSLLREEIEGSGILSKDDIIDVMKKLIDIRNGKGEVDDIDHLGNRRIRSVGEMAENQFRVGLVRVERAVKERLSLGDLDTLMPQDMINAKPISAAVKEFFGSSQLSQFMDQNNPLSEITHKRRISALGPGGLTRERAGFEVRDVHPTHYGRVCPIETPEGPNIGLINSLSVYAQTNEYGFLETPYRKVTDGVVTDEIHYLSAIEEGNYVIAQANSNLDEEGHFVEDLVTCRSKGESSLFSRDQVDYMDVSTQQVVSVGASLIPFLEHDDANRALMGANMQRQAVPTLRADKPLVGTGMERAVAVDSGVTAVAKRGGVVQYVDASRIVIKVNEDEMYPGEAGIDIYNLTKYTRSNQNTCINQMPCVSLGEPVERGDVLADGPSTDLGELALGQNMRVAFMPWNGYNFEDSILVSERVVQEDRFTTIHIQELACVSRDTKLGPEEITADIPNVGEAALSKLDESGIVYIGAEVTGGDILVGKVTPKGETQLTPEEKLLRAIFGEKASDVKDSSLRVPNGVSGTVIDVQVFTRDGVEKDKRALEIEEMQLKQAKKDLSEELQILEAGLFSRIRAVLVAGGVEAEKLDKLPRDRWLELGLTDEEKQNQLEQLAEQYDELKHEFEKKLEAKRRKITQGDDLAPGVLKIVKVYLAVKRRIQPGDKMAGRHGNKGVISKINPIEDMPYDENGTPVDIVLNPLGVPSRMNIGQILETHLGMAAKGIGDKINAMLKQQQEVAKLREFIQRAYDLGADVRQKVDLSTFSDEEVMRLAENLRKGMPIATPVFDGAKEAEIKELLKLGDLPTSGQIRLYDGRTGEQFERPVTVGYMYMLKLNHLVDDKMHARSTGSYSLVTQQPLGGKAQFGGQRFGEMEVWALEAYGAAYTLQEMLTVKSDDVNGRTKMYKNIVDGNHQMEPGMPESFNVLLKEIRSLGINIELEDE

SMILES strings stand for the structures. This is a selection; strong and weak results do not stand in their true shares. Active and inactive are the calls of the source. Rule as the data show it: active = inhibition above about 20%; inactive = the rest.

The target of the assay is DNA-directed RNA polymerase subunit beta (Escherichia coli (strain K12)) (UniProt P0A8V2). The assay can be described thus: bacterial RNA polymerase transcription inhibition – biochemical (AID 559).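 Also: 0% = enzyme without compound and 100% = no enzyme blank.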 As to conditions: E. coli RNA polymerase, fluorescence transcription assay; stronger effect = higher value;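 tested at 10 µM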.
The inhibition is the change of the read-out against control, counted positive when it falls. Regarding `Cc1nc2ccc3ccccc3c2s1.O=[N+]([O-])c1cc([N+](=O)[O-])c(O)c([N+](=O)[O-])c1`, the inhibition was inactive: 7.5%.
Regarding `Cc1ccc(C)c(NP(C)(=O)Oc2ccccc2)c1` (stereo not drawn), the inhibition was inactive: -2.81%.
In the case of `Cc1ccc(NP(C)(=O)Oc2ccccc2)c(C)c1` (stereo not drawn) it was inactive: 5.2%; in that of `COc1ccccc1OP(C)(=O)Nc1ccc(C)cc1` (stereo not drawn), inactive: -5.01%; in that of `CP(=S)(Nn1cnnc1)Oc1ccccc1` (stereo not drawn), inactive: 8.76%.
The value for `CP(=O)(NC(=O)Nc1ccccc1)Oc1ccccc1` (stereo not drawn) was inactive: -4.45%.
Regarding `CCOP(C)(=S)SCC(=O)NC(C)C(=O)O` (stereo not drawn), the inhibition was inactive: -0.21%.
In the case of `CCN(CC)CC(O)COC(=O)C(O)(c1ccccc1)C1CCCCC1` (stereo not drawn) it was inactive: 7.67%; in that of `CP(=O)(Oc1ccccc1)N1CCOC1=O` (stereo not drawn), inactive: 6.15%; in that of `COc1ccccc1OP(C)(=O)Nc1c(C)n(C)n(-c2ccccc2)c1=O` (stereo not drawn), inactive: 9.87%.
Take `COc1ccccc1OP(C)(=O)Nc1ccc(C)c(C)c1` (stereo not drawn): the inhibition was inactive: 8.42%.
In the case of `Cc1nc2ccc3ccccc3c2o1.O=[N+]([O-])c1cc([N+](=O)[O-])c(O)c([N+](=O)[O-])c1` it was inactive: -9.72%; in that of `CP(=O)(Nc1ccccn1)Oc1ccccc1` (stereo not drawn), inactive: 8.42%; in that of `CP(=O)(Nc1ccccc1F)Oc1ccccc1` (stereo not drawn), inactive: 3%.
Regarding `CN(C)CCOC(=O)C(O)(c1ccccc1)C1CCCCC1` (stereo not drawn), the inhibition was inactive: 2.66%.
In the case of `CCOP(C)(=S)SCC(=O)NC(C)(CC)C(=O)O` (stereo not drawn), the inhibition is inactive: 10.7%.
For `CP(=O)(Nc1ccc2c(c1)OCCO2)Oc1ccccc1` (stereo not drawn), the inhibition was inactive: 15.5%.
In the case of `Cc1ccccc1NP(C)(=O)Nc1ccccc1C` it was inactive: 5.54%.
